Anti-infective test results gathered from many reports (values: NIAID ChemDB through PubChem).

Common to all: whole-cell or culture tests; agent: Herpes simplex virus 1; method: cytopathic effect; read-out: EC50

ECn is the concentration giving n% inhibition of infection, replication or growth.

smiles	strain	cells	result
Nc1nc2c(ncn2COCCO)c(=O)[nH]1	KOS	PRK	0.06 µg/mL
OC[C@H]1O[C@@H](c2cc(Br)c(F)cc2F)C[C@@H]1O	McIntyre	E6SM	>400 µg/mL
[N-]=[N+]=NCc1cn([C@H]2C[C@H](O)[C@@H](CO)O2)c(=O)[nH]c1=O	VEX149	PRK	2 µg/mL
Nc1nc(=O)n([C@@H]2O[C@H](CO)[C@@H](O)[C@@H]2F)cc1I	KOS	HEL	0.02 µg/mL
Nc1ncnc2c1ncn2[C@@H]1O[C@H](CO)[C@@H](O)[C@H]1OP(=O)(O)OC[C@H]1O[C@@H](n2cnc3c(N)ncnc32)[C@H](OP(=O)(O)OC[C@H]2O[C@@H](n3cc(F)c(=O)[nH]c3=O)C[C@@H]2O)[C@@H]1O	F	PRK	100 µg/mL
N#Cc1cc([C@H]2C[C@H](O)[C@@H](CO)O2)c(F)cc1F	F	E6SM	>400 µg/mL
Nc1ccn([C@@H]2O[C@H](CO)[C@@H](O)[C@@H]2O)c(=O)n1	KOS	HSF	0.04 µg/mL
O=Cc1cn([C@H]2C[C@H](O)[C@@H](CO)O2)c(=O)[nH]c1=O	VEX142	PRK	2 µg/mL
O=c1[nH]c(=O)n([C@H]2C[C@H](O)[C@@H](CO)O2)cc1/C=C/Br	KOS	BSC-1	0.02 µg/mL
[N-]=[N+]=N[C@@H]1[C@@H](OP(=O)(O)OC[C@H]2O[C@@H](n3cnc4c(N)ncnc43)[C@H](OP(=O)(O)OCCOCn3cnc4c(=O)[nH]c(N)nc43)[C@H]2N=[N+]=[N-])[C@H](n2cnc3c(N)ncnc32)O[C@@H]1CO	McIntyre	PRK	2 µg/mL
O=c1[nH]c(=O)n([C@@H]2O[C@H](CO)[C@@H](O)[C@@H]2O)cc1/C=C/Br	KOS	BALB/3T3	0.06 µg/mL
CN1CCN(Cc2cn([C@H]3C[C@H](O)[C@@H](CO)O3)c(=O)[nH]c2=O)CC1	KOS	PRK	>200 µg/mL
OC[C@H]1O[C@H](c2cc(Cl)c(F)cc2F)C[C@@H]1O	VMW 1837	E6SM	>400 µg/mL
CSCc1cn([C@H]2C[C@H](O)[C@@H](CO)O2)c(=O)[nH]c1=O	VEX149	PRK	20 µg/mL
Nc1nc2c(ncn2COCCO)c(=O)[nH]1	13231WL KOS (acyclovir-susceptible)	HFF	1 µg/mL
OC[C@H]1O[C@@H](c2ccc(F)cc2F)C[C@@H]1O	VMW 1837	E6SM	>400 µg/mL

The first 2 rows once more:

smiles	strain	cells	result
Nc1nc2c(ncn2COCCO)c(=O)[nH]1	KOS	PRK	0.06 µg/mL
OC[C@H]1O[C@@H](c2cc(Br)c(F)cc2F)C[C@@H]1O	McIntyre	E6SM	>400 µg/mL

Rows are shuffled and stem from different studies.